PMC3422170

Biological target: T1, DBP (DNA-binding protein) (Bombyx mori nuclear polyhedrosis virus (BmNPV)) (UniProt P24649)
T1 sequence (looked up, limits assumed): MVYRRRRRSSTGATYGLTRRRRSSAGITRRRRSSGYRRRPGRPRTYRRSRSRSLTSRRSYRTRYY
Test: EMSA
Settings: 100 ng protein; recombinant protein; single-stranded DNA

“CCGAAGCTTGCAAATAAATAAGTATTGCAAATAAATAAGTATTGCAAATAAATAAGTATTCTCGAGGCCATGCCAT [3rep ssDNA (polh promoter, 3 repeats)]”: binds.

Construct, isoform or probe ends are uncertain for at least one entry. Tags and fusion partners may be left off the protein sequences shown.
